Source: US11555006B2, “Elucidation of novel 13-series resolvins that increase with atorvastatin and clear infections” (The Brigham and Women's Hospital, Inc., priority 2015, dated 2023)

What was measured:
[1] = Peripheral blood lipid mediator profiles during self-resolving E. coli infections in mice; format: in vivo; conditions: endogenous level, E. coli 1×10^5 CFU/mouse
[2] = Peripheral blood lipid mediator profiles pre and post-exercise in healthy volunteers (LC-MS-MS); format: in vivo, human; conditions: endogenous level, mean, n=4
[3] = Plasma lipid mediator levels in reference plasma, healthy volunteers and sepsis patients (LC-MS-MS); format: in vivo, human; conditions: endogenous level; for Reference Plasma lipid mediator level: NIST SRM 1950 plasma, mean; for Healthy Volunteer lipid mediator level / Sepsis Patients Plasma lipid mediator level: plasma; for Healthy Volunteer lipid mediator level: n=4, mean; for Sepsis Patients Plasma lipid mediator level: n=9, mean

Compound	lipid mediator level 0 h [1]	lipid mediator level 4 h [1]	lipid mediator level 12 h [1]	lipid mediator level 24 h [1]	lipid mediator level 48 h [1]	Post-Exercise lipid mediator level [2]	Pre-Exercise lipid mediator level [2]	Reference Plasma lipid mediator level [3]	Healthy Volunteer lipid mediator level [3]	Sepsis Patients Plasma lipid mediator level [3]
7,8,13-trihydroxy-docosapentaenoic [RvT2]	9.4 pg/mL	50.3 pg/mL	14.1 pg/mL	5.2 pg/mL	5.2 pg/mL					
CCCCCC(O)/C=C/C=C\C/C=C\C=C\C(O)CCCC(=O)O (stereo not drawn) [5,15-diHETE]	95.0 pg/mL	121.1 pg/mL	51.6 pg/mL	36.4 pg/mL	19.2 pg/mL	89.1 pg/mL	74.0 pg/mL	4.2 pg/mL	6.2 pg/mL	87.1 pg/mL
CCCCC[C@H](O)/C=C/[C@@H]1[C@H](C/C=C\CCCC(=O)O)[C@@H](O)C[C@H]1O [8-iso-PGF2a]	8.1 pg/mL	227.6 pg/mL	255.0 pg/mL	64.5 pg/mL	71.6 pg/mL	3.9 pg/mL	6.6 pg/mL	4.5 pg/mL	1.9 pg/mL	11.8 pg/mL
CCCCCC(O)/C=C/C=C/C/C=C/CCCC(=O)O (stereo not drawn) [12-HHT]	89.8 pg/mL	12598.1 pg/mL	12879.5 pg/mL	3208.8 pg/mL	4237.5 pg/mL	177.6 pg/mL	109.0 pg/mL	21.8 pg/mL	39.6 pg/mL	127.7 pg/mL
CCCCC/C=C\C[C@@H](O)/C=C/C=C/C=C\[C@@H](O)CCCC(=O)O [LTB4, leukotriene B4]	0.7 pg/mL	100.3 pg/mL	35.9 pg/mL	12.0 pg/mL	106.9 pg/mL	14.4 pg/mL	4.5 pg/mL	25.2 pg/mL	3.7 pg/mL	3.3 pg/mL
CCCCC[C@H](O)/C=C/C=C\C=C\C=C\[C@@H](O)[C@@H](O)CCCC(=O)O [LXA4]	12.6 pg/mL	39.9 pg/mL	70.7 pg/mL	16.7 pg/mL	46.0 pg/mL	8.0 pg/mL	3.6 pg/mL	* (*below limits; limits ~0.1 pg.)	0.8 pg/mL	5.5 pg/mL
CCCCC[C@H](O)[C@H](O)/C=C/C=C/C=C\C=C\[C@@H](O)CCCC(=O)O [LXB4]	41.1 pg/mL	73.9 pg/mL	143.9 pg/mL	37.2 pg/mL	36.2 pg/mL	19.3 pg/mL	7.4 pg/mL	8.7 pg/mL	3.2 pg/mL	56.7 pg/mL
CC/C=C\C/C=C\C[C@H](O)\C=C/C=C/C=C/[C@H](O)C/C=C\CCC(=O)O [MaR1]	* (* = below limits limits ~0.1 pg.)	* (* = below limits limits ~0.1 pg.)	* (* = below limits limits ~0.1 pg.)	* (* = below limits limits ~0.1 pg.)	* (* = below limits limits ~0.1 pg.)	* (* = below limits; limits ~0.1 pg.)	* (* = below limits; limits ~0.1 pg.)	* (*below limits; limits ~0.1 pg.)	* (*below limits; limits ~0.1 pg.)	7.4 pg/mL
CC/C=C\C[C@H](O)\C=C/C=C/C=C/[C@H](O)C/C=C\C/C=C\CCC(=O)O [PD1]	1.8 pg/mL	4.2 pg/mL	4.1 pg/mL	3.0 pg/mL	3.9 pg/mL	0.5 pg/mL	0.3 pg/mL	* (*below limits; limits ~0.1 pg.)	1.2 pg/mL	1.5 pg/mL
CCCCC[C@H](O)/C=C/[C@H]1C(=O)C[C@H](O)[C@@H]1C/C=C\CCCC(=O)O [PGD2]	7.7 pg/mL	353.5 pg/mL	273.4 pg/mL	77.3 pg/mL	106.3 pg/mL	31.2 pg/mL	6.5 pg/mL	7.3 pg/mL	9.8 pg/mL	79.4 pg/mL
CCCCC[C@H](O)/C=C/[C@H]1[C@H](O)CC(=O)[C@@H]1C/C=C\CCCC(=O)O [PGE2]	9.2 pg/mL	1602.0 pg/mL	1775.6 pg/mL	323.0 pg/mL	414.3 pg/mL	148.4 pg/mL	115.2 pg/mL	17.8 pg/mL	24.1 pg/mL	132.1 pg/mL
CCCCC[C@H](O)/C=C/[C@@H]1[C@@H](C/C=C\CCCC(=O)O)[C@@H](O)C[C@H]1O [PGF2a]	3.3 pg/mL	153.0 pg/mL	57.5 pg/mL	12.2 pg/mL	26.7 pg/mL	12.9 pg/mL	4.4 pg/mL	1.7 pg/mL	4.2 pg/mL	51.0 pg/mL
CC/C=C\C[C@H](O)/C=C/C=C\C=C\C=C\[C@@H](O)[C@@H](O)C/C=C\CCC(=O)O [RvD1]	5.5 pg/mL	51.0 pg/mL	27.6 pg/mL	12.8 pg/mL	15.5 pg/mL	4.6 pg/mL	1.0 pg/mL	0.8 pg/mL	1.8 pg/mL	4.6 pg/mL
CC/C=C\C[C@H](O)[C@H](O)/C=C/C=C/C=C\C=C\[C@@H](O)C/C=C\CCC(=O)O [RvD2]	8.1 pg/mL	16.0 pg/mL	22.7 pg/mL	4.0 pg/mL	2.2 pg/mL	1.5 pg/mL	1.1 pg/mL	0.9 pg/mL	1.5 pg/mL	3.7 pg/mL
CC/C=C\C[C@H](O)/C=C/C=C\C[C@@H](O)/C=C/C=C/C=C\[C@@H](O)CCC(=O)O [RvD3]	2.6 pg/mL	6.3 pg/mL	2.7 pg/mL	1.1 pg/mL	6.1 pg/mL	0.5 pg/mL	0.4 pg/mL	* (*below limits; limits ~0.1 pg.)	* (*below limits; limits ~0.1 pg.)	10.5 pg/mL
CC/C=C\C[C@H](O)/C=C/C=C\C/C=C\C/C=C\C=C\[C@@H](O)CCC(=O)O [RvD6]	51.4 pg/mL	346.8 pg/mL	435.8 pg/mL	259.3 pg/mL	219.4 pg/mL					
CCC(O)/C=C/C=C\C=C\C(O)C/C=C\C=C\C(O)CCCCCC(=O)O (stereo not drawn) [RvT1, 7,13,20-trihydroxy-docosapentaenoic acid]	6.4 pg/mL	34.6 pg/mL	12.6 pg/mL	6.8 pg/mL	10.3 pg/mL					
CCC=CCC=CC=CC(O)C(O)C=CC=CC(O)CCCCCC(=O)O (stereo not drawn) [RvT3, 7,12,13-trihydroxy-docosapentaenoic acid]	11.5 pg/mL	32.7 pg/mL	16.4 pg/mL	3.3 pg/mL	5.2 pg/mL					
CC/C=C\C/C=C\C=C\C(O)C/C=C\C=C\C(O)CCCCCC(=O)O (stereo not drawn) [RvT4, 7,13-dihydroxy-docosapentaenoic acid]	10.2 pg/mL	45.5 pg/mL	10.4 pg/mL	5.1 pg/mL	4.8 pg/mL					
